Results of unrelated studies side by side (data: NIAID ChemDB).

Common to all: tests in culture; organism: HIV-1; cell line: CEM; measure: EC50

Lines come from different laboratories, so protocols vary. ECn is the concentration giving n% inhibition of infection, replication or growth. a–b is a range or a potency band. Blank or dashed fields: not listed here.

SMILES | strain | mutations | read by | setting | value
Cc1cc(S(=O)(=O)Nc2nc3ccccc3[nH]2)c(S)cc1Cl | RF | - | cytopathic effect / XTT | - | >58.2 µM
CC(C)Nc1cccnc1N1CCN(C(=O)c2cc3cc(NS(C)(=O)=O)ccc3[nH]2)CC1 | IIIB | RT-M184V | syncytia | - | 0.003 µg/mL
C[C@H](Cn1cnc2c(N)ncnc21)OCP(=O)(O)O | Clinical isolate C19 | RT-M41L V118I L210W T215Y | syncytia | - | 20 µg/mL
CCc1cc(NCc2nc3c(Cl)ccc(Cl)c3o2)c(=O)[nH]c1C | IIIB PYR(RT-Y181C) | RT-Y181C | syncytia | - | ≥5 µg/mL
Cc1cc(S(=O)(=O)Nc2n[nH]c(-c3ccccn3)n2)c(S)cc1Cl | RF | - | cytopathic effect / XTT | - | >4.3 µM
NC(=S)N=Nc1c(O)cc(Nc2ccc(Cl)cc2Cl)c2ccccc12 | IIIB | - | cytopathic effect / XTT | - | 89 µM
Nc1cc(OCCOCP(=O)(O)O)nc(N)n1 | IIIB | - | syncytia | - | 1.1 µg/mL
CC(C)(C)NC(=O)c1ccccc1C[C@@H](O)[C@H](CSc1ccc2ccccc2c1)NC(=O)c1cccc(N)c1Cl | - | - | cytopathic effect | - | 1.5 µg/mL
CC(C)=CCOc1cc(NC(=S)c2ccoc2C)ccc1Cl | IIIB | RT-L100I | syncytia | - | 0.035 ± 0.009 µM
CC1=C(C(=O)Nc2ccc(Cl)c(C(=O)OC(C)C)c2)SCCO1 | IIIB | - | cytopathic effect / XTT | - | 0.0075 µM
Cc1cc(S(N)(=O)=O)c(SCc2nc(N)nc(N(C)C)n2)cc1Cl | RF | - | cytopathic effect / XTT | - | >200 µM
CC(n1cnc2c(=O)[nH]c(N)nc21)C1(COCP(=O)(O)O)CC1 | - | - | XTT | - | 27.7 µM
Fc1cccc(F)c1C1SCc2nc3ccccc3n21 | - | RT-Y181C | cytopathic effect | - | 13.8 µM
CC(=O)c1ccc(C)cc1NC(C(N)=O)c1c(Cl)cccc1Cl | IIIB WT | - | syncytia | - | 0.017 µM
CC(C)Nc1cccnc1N1CCN(C(=O)c2cc3cc(NS(C)(=O)=O)ccc3[nH]2)CC1 | IIIB | - | syncytia | - | 0.015 ± 0.007 µM
Fc1cccc(F)c1C1SCc2nc3ccccc3n21 | IIIB | - | cytopathic effect / MTT | - | 1.39 µM
CC(n1cnc2c(N)ncnc21)C1(COCP(=O)(O)O)CC1 | - | - | XTT | - | 10.6 µM
CCOC(=O)NN(C(=O)OCC)C(=C(C1CCCCC1)N1CCOCC1)N(NC(=O)OCC)C(=O)OCC | IIIB | - | cytopathic effect / XTT | - | 1.7 µM
Cc1cc(S(=O)(=O)Nc2nnc3c(Cl)cc(C(F)(F)F)cn23)c(S)cc1Cl | RF | - | cytopathic effect / XTT | - | 46.4 µM
Cc1cc(C)cc(Sc2c(C(C)C)c(=O)[nH]c(=S)n2COCCO)c1 | IIIB | RT-E138K | syncytia | - | 0.01 µM
Nc1ncnc2c1ncn2CCOCP(=O)(O)O | Clinical isolate L6.5 | RT-S68G K70T V75I F77L K103N F116Y Q151M K219R | syncytia | - | 30 µg/mL
Cc1ccnc2c1NC(=O)c1cccnc1N2C1CC1 | IIIB | RT-E103K | syncytia | - | 0.04 µg/mL
CC(C)=CCOc1cc(NC(=S)c2ccsc2C)ccc1Cl | IIIB | RT-V179D | syncytia | - | 0.012 ± 0.008 µM
CC(C)(C)NC(=O)c1ccccc1C[C@@H](O)[C@H](CSc1ccc2ccccc2c1)NC(=O)c1cccc2c1CCNC2 | - | - | cytopathic effect | - | >50 µg/mL
Fc1cccc(F)c1C1SCc2nc3ccccc3n21 | IIIB | - | cytopathic effect / XTT | - | 0.52 µM
Cc1cn([C@@H]2O[C@H](CO[Si](C)(C)C(C)(C)C)[C@@H](O)[C@H]2O[Si](C)(C)C(C)(C)C)c(=O)n(CC(=O)O)c1=O | IIIB | - | syncytia | - | 4.5 µM
Cc1cn([C@H]2C[C@H](N=[N+]=[N-])[C@@H](COP(=O)(O)OC[C@H]3OC(O)[C@H](O)[C@@H](O)[C@@H]3O)O2)c(=O)[nH]c1=O | LAV-Bru | - | RT activity | 7 d | <0.2 µM
Cc1cn([C@H]2C[C@H](N=[N+]=[N-])[C@@H](CO)O2)c(=O)[nH]c1=O | IIIB | RT-Y188H | syncytia | - | 0.001 µg/mL
CCNc1cccnc1N1CCN(C(=O)c2cc3cc(OC)ccc3[nH]2)CC1 | IIIB HEPT-resistant (RT Y188H) | RT-Y188H | syncytia | - | 0.35 µg/mL
C[C@H](COc1cc(N)nc(N)n1)OCP(=O)(O)O | Clinical isolate C20 | RT-M41L D67N V118I M184V L210W T215Y | syncytia | - | 7 µg/mL
Cc1occc1C(=S)Nc1ccc(Cl)c(/C=N/OC(C)(C)C)c1 | IIIB | RT-V106A | syncytia | - | 0.13 µg/mL
Cc1cn([C@@H]2O[C@H](CO[Si](C)(C)C(C)(C)C)C3(OS(=O)(=O)C=C3N)[C@H]2O[Si](C)(C)C(C)(C)C)c(=O)n(C)c1=O | IIIB | RT-E138K | syncytia | - | >33.1 µM
CC(C)(C)NC(=O)c1ccccc1C[C@@H](O)[C@H](CSc1ccc2ccccc2c1)NC(=O)c1cccc2cnccc12 | - | - | cytopathic effect | - | 16 µg/mL
O=S(=O)(Nc1nnc2c3ccccc3ccn12)c1ccc(F)cc1S | RF | - | cytopathic effect / XTT | - | 34.3 µM
CCOCn1c(Cc2ccccc2)c(C(C)C)c(=O)[nH]c1=O | IIIB | RT-M184V | syncytia | - | 0.002 µg/mL
Cc1cn([C@@H]2O[C@H](CO[Si](C)(C)C(C)(C)C)[C@@H](O[Si](C)(C)C(C)(C)C)[C@H]2O)c(=O)n(CCO)c1=O | IIIB | - | syncytia | - | >50 µM
CC(C)Nc1cccnc1N1CCN(C(=O)c2cc3cc(NS(C)(=O)=O)ccc3[nH]2)CC1 | IIIB | - | syncytia | - | 0.006 µg/mL
CC(C)=CCN1Cc2cc(Cl)cc3[nH]c(=S)n(c23)C[C@@H]1C | HXB2 (RT E138A S162C E169D T200A L214F) Clinical isolate | RT-E138A S162C E169D T200A L214F | syncytia | - | 0.031 µM
Cc1cn([C@@H]2O[C@H](CO[Si](C)(C)C(C)(C)C)[C@@]3(OS(=O)(=O)C=C3N)[C@H]2O[Si](C)(C)C(C)(C)C)c(=O)[nH]c1=O | IIIB | - | syncytia | - | 0.05 µM
Nc1ccn([C@H]2CC[C@@H](CO)O2)c(=O)n1 | IIIB | - | syncytia | - | 0.035 µM
Cc1cn([C@@H]2O[C@H](CO[Si](C)(C)C(C)(C)C)C3(OS(=O)(=O)C=C3N)[C@H]2O[Si](C)(C)C(C)(C)C)c(=O)n(C)c1=O | IIIB | - | syncytia | - | 0.024 µg/mL
CCCCCCCCOCCCCC(=O)O | - | - | cytopathic effect / MTT | - | >40 µM
Cc1cc(S(=O)(=O)Nc2nc(N)nc3nc4ccccc4n23)c(S)cc1Cl | RF | - | cytopathic effect / XTT | - | 151.5 µM
C=C(COCP(=O)(O)O)C(C)n1cnc2c(N)ncnc21 | - | - | XTT | - | 80 µM
CC(C)(C)NC(=O)c1ccccc1C[C@@H](O)[C@H](CSc1ccc2ccccc2c1)NC(=O)c1cccc2c1CCCN2 | - | - | cytopathic effect | - | 1.9 µg/mL
Cc1ccnc2c1NC(=O)c1cccnc1N2C1CC1 | HXB2 | - | syncytia | - | 0.09 µg/mL
Cc1cn([C@@H]2O[C@H](CO[Si](C)(C)C(C)(C)C)C3(OS(=O)(=O)C=C3N)[C@H]2O[Si](C)(C)C(C)(C)C)c(=O)n(C)c1=O | IIIB | - | cytopathic effect | - | 0.015 µg/mL
Cc1cn([C@@H]2O[C@H](CO[Si](C)(C)C(C)(C)C)C3(OS(=O)(=O)C=C3N)[C@H]2O[Si](C)(C)C(C)(C)C)c(=O)n(C)c1=O | IIIB | - | syncytia | - | 0.05 µM
Cc1cn([C@H]2C[C@H](N=[N+]=[N-])[C@@H](CO)O2)c(=O)[nH]c1=O | HXB2 | RT-M41L T215Y | syncytia | - | ≥25 µg/mL
CCn1c(=O)c(C)cn([C@@H]2O[C@H](CO[Si](C)(C)C(C)(C)C)C3(OS(=O)(=O)C=C3N)[C@H]2O[Si](C)(C)C(C)(C)C)c1=O | IIIB WT | - | syncytia | - | 0.049 µM
Cc1occc1C(=S)Nc1ccc(Cl)c(/C=N/OC(C)(C)C)c1 | IIIB | - | syncytia | - | 0.05 µg/mL
CCOCCCCCCCCCCC(=O)O | - | - | cytopathic effect / MTT | - | >40 µM
CC(C)(C)NC(=O)c1ccccc1C[C@@H](O)[C@H](CSc1ccc2ccccc2c1)NC(=O)c1cccc2[nH]ccc12 | - | - | cytopathic effect | - | 6.6 µg/mL
CCn1c(=O)c(C)cn([C@@H]2O[C@H](CO[Si](C)(C)C(C)(C)C)C3(OS(=O)(=O)C=C3N)[C@H]2O[Si](C)(C)C(C)(C)C)c1=O | IIIB BHAP(RT-L100I) | RT-L100I | syncytia | - | 0.08 µg/mL
CC1=NN(c2nc(N)nc(C(C)Sc3cc(Cl)c(C)cc3S(N)(=O)=O)n2)C(C)(C)C1 | RF | - | cytopathic effect / XTT | - | >43.1 µM
Cc1cn([C@@H]2O[C@H](CO[Si](C)(C)C(C)(C)C)C3(OS(=O)(=O)C=C3N)[C@H]2O[Si](C)(C)C(C)(C)C)c(=O)n(C)c1=O | IIIB TIBO R82913-resistant (RT K103N) | RT-K103N | syncytia | - | 0.15 µg/mL
Cc1cn([C@@H]2O[C@H](CO[Si](C)(C)C(C)(C)C)C3(OS(=O)(=O)C=C3N)[C@H]2O[Si](C)(C)C(C)(C)C)c(=O)n(C)c1=O | HXB2 | - | syncytia | - | 0.05 µg/mL
C[C@H](Cn1cnc2c(N)ncnc21)OCP(=O)(O)O | IIIB | RT-Y181C | syncytia | - | 1.1 µg/mL
CN=C1CN=C(c2ccc[nH]2)c2cc(Cl)ccc2N1 | IIIB | - | cytopathic effect / MTT | - | 0.058 µg/mL
Cc1cn([C@@H]2O[C@H](CO)C=C2F)c(=O)[nH]c1=O | - | - | p24 | - | 10–100 µM
CC(C)(C)[Si](C)(C)OC[C@H]1O[C@@H](n2cnc3c(=O)n(CC(=O)O)cnc32)[C@H](O[Si](C)(C)C(C)(C)C)[C@@H]1O | IIIB | - | syncytia | - | 76 µM
O=c1[nH]cnc2c1ncn2[C@H]1CC[C@@H](CO)O1 | IIIB | - | syncytia | - | 3.5 µg/mL
CNNC(=NS(=O)(=O)c1cc(C#N)c(NNC)cc1S)NNC | RF | - | cytopathic effect / XTT | - | >110 µM
CCCCCCCCCCCCCCCCOP(=O)(OC[C@H]1OC(O)[C@H](O)[C@@H](O)[C@@H]1O)OC[C@H]1O[C@@H](n2cc(C)c(=O)[nH]c2=O)C[C@@H]1N=[N+]=[N-] | LAV-Bru | - | RT activity | 15 d | <0.2 µM
C=C(C)OC(=O)N1c2cc(Cl)ccc2NC(=S)C1(C)C | IIIB | - | syncytia | - | 0.013 µM
C=C(COCP(=O)(O)O)C(C)n1ccc(=O)[nH]c1=O | - | - | XTT | - | 26.9 µM
Cc1cn([C@@H]2O[C@H](CO[Si](C)(C)C(C)(C)C)C3(OS(=O)(=O)C(I)=C3N)[C@H]2O[Si](C)(C)C(C)(C)C)c(=O)n(C)c1=O | IIIB | - | syncytia | - | 0.05 µM
CCCCOCCCCCCCCC(=O)O | - | - | cytopathic effect / MTT | - | <40 µM
Cc1cn([C@@H]2O[C@H](CO[Si](C)(C)C(C)(C)C)[C@@]3(OS(=O)(=O)C=C3N)[C@H]2O[Si](C)(C)C(C)(C)C)c(=O)[nH]c1=O | IIIB | RT-E138K | syncytia | - | 3.1 µM
Cc1cn([C@H]2C[C@H](N=[N+]=[N-])[C@@H](CO)O2)c(=O)[nH]c1=O | LAV-Bru | - | RT activity | 7 d | <0.2 µM
CCOCn1c(Sc2ccccc2)c(CC)c(=O)[nH]c1=S | IIIB TIBO R82913-resistant (RT K103N) | RT-K103N | syncytia | - | 0.77 µg/mL
Nc1ccn([C@@H]2O[C@H](CO)C[C@@H]2F)c(=O)n1 | - | - | p24 | - | 4 µM
CCCCCOCCCCCCCC(=O)O | - | - | cytopathic effect / MTT | - | >40 µM
Cc1occc1C(=S)Nc1ccc(Cl)c(C(=O)OC2CCCC2)c1 | IIIB | RT-K103N | syncytia | - | 0.7 µg/mL
CCCC(C)(C)[Si](C)(C)OC[C@H]1O[C@@H](n2cc(C)c(=O)n(CC(=O)O)c2=O)[C@H](O[Si](C)(C)C(C)(C)CCC)[C@@H]1O | IIIB | - | syncytia | - | >10 µM
O=c1[nH]cnc2c1ncn2[C@H]1CC[C@@H](CO)O1 | - | - | cytopathic effect / MTT | - | 5 µM